Data as given in PubChem BioAssay AID1259414 (Drosophila RNAi Screening Center, 2018).

Assay: 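Host factors increasing or decreasing Wolbachia levels in cultured fly cells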 (primary screen)
Cell system: Drosophila JW18 cells infected with Wolbachia
Reagent: long dsRNA against Drosophila genes, 0.25 µg dsRNA per well of a 384-well plate
Timing: 5 days
Treatment: cells persistently infected with Wolbachia before knock-down; no added drug
Read-out: 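Imaged fluorescence in situ signal for Wolbachia 23S rRNA per DAPI-counted host cell, given as a robust z-score within each plate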
Reading the numbers: Wolbachia per cell robust z: higher = more Wolbachia per host cell than the plate typical
Call rule: 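Active if absolute robust z reaches 1.5 in two or more of three replicates, leaving out multi- or no-target dsRNAs, genes unexpressed in JW18 and A1 wells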
The screen tested about 24,000 reagents; this is an unselected part of those with a known target gene and a result. In the full data, about 1,210 (5%) are marked active. 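Inactive calls also include excluded dsRNAs with several or no targets, genes unexpressed in JW18, and well A1, regardless of score.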 Unmarked entries are inactive. The numbers tell different reagents against one gene apart.

| Wolbachia per cell robust z, rep 1 | Wolbachia per cell robust z, rep 2 | Wolbachia per cell robust z, rep 3 | Gene | reagent |
| --- | --- | --- | --- | --- |
| -1.89 | -0.18 | -0.212 | Tim23 (GeneID 3355096) | 1 |
| -0.582 | 0.441 | 0.244 | CG1663 (GeneID 36012) | 1 |
| 0.491 | 0.584 | 0.0526 | CG1663 (GeneID 36012) | 2 |
| 0.5 | 0.699 | -0.0283 | CG1663 (GeneID 36012) | 3 |
| -0.836 | -1.35 | -0.106 | LTV1 (GeneID 36146) | 1 |
| 1.11 | -2.15 | -1.34 | Sfp33A4 (GeneID 8674007) | 1 |
| -3.74 | 1.06 | -0.193 | CG7536 (GeneID 32786) | 1 |
| -8.72 | -0.581 | 1.49 | E(spl)mbeta-HLH (GeneID 43152) | 1 |
| -3.43 | -0.601 | -0.0611 | E(spl)mbeta-HLH (GeneID 43152) | 2 |
| -1.72 | -0.896 | -0.73 | CG6296 (GeneID 43246) | 1 |
| -0.367 | 0.455 | -0.793 | Sfp24Bb (GeneID 8674094) | 1 |
| -0.555 | -0.813 | 1.09 | CG9346 (GeneID 37381) | 1 |
| -0.181 | -0.515 | 0.594 | CG9346 (GeneID 37381) | 2 |
| -0.442 | 0.242 | 0.169 | CG8607 (GeneID 38805) | 1 |
| -1.9 (active) | -1.58 | 0.453 | MED8 (GeneID 37305) | 1 |
| 0.604 | -0.0254 | 0.152 | Ns3 (GeneID 31097) | 1 |
| -0.859 | -0.224 | -1.52 | Ns3 (GeneID 31097) | 2 |
| 1.23 | -0.816 | 0.597 | CG14568 (GeneID 40418) | 1 |
| 0.399 | -0.406 | 1.46 | CG32249 (GeneID 317939) | 1 |
| 0.527 | -4.22 | 0.485 | CG32249 (GeneID 317939) | 2 |
| 0.598 | -1.04 | 0.024 | CG32249 (GeneID 317939) | 3 |
| -0.0217 | 0.609 | 0.553 | Eip78C (GeneID 40345) | 1 |
| -0.0326 | 0.996 | -1.88 | Eip78C (GeneID 40345) | 2 |
| -0.606 (active) | -2.1 | -6.37 | Hsp68 (GeneID 42852) | 1 |
| 0.00989 | 0.214 | -0.56 | CG31997 (GeneID 319064) | 1 |
| -1.07 | -0.86 | 0.491 | CG31007 (GeneID 318553) | 1 |
| -0.183 | -1.46 | -0.0231 | CG31007 (GeneID 318553) | 2 |
| 0.533 | 0.9 | 0.338 | Pex16 (GeneID 40293) | 1 |
| 1.07 | 1.48 | 0.146 | Or65b (GeneID 318012) | 1 |
| 0.441 | 0.988 | 0.495 | CG2113 (GeneID 38356) | 1 |
| -0.622 | 0.713 | -0.694 | CG2113 (GeneID 38356) | 2 |
| -0.149 | 0.935 | -0.582 | CG7079 (GeneID 42488) | 1 |
| -1.42 | -5.38 | -5.35 | CG7079 (GeneID 42488) | 2 |
| 0.642 | 0.423 | -0.00454 | Syx13 (GeneID 39485) | 1 |
| 0.599 | -3.46 | 0.606 | CG3734 (GeneID 42318) | 1 |
| -0.597 | -0.131 | -0.512 | CG3734 (GeneID 42318) | 2 |
| 1.71 | 1.47 | 1.14 | SmF (GeneID 36314) | 1 |
| 0.897 | 1.36 | 2.65 | SmF (GeneID 36314) | 2 |
| -0.329 | -0.355 | -5.07 | CG10527 (GeneID 37393) | 1 |
| 0.479 | 0.944 | 1.52 | CG10527 (GeneID 37393) | 2 |

The list goes on; the last 4 above are carried over.
| Wolbachia per cell robust z, rep 1 | Wolbachia per cell robust z, rep 2 | Wolbachia per cell robust z, rep 3 | Gene | reagent |
| --- | --- | --- | --- | --- |
| 1.71 | 1.47 | 1.14 | SmF (GeneID 36314) | 1 |
| 0.897 | 1.36 | 2.65 | SmF (GeneID 36314) | 2 |
| -0.329 | -0.355 | -5.07 | CG10527 (GeneID 37393) | 1 |
| 0.479 | 0.944 | 1.52 | CG10527 (GeneID 37393) | 2 |
| -0.0513 | -2.07 | -2.88 | CG12998 (GeneID 32710) | 1 |
| 1.59 (active) | 0.81 | 1.65 | La (GeneID 35305) | 1 |
| -0.441 | 0.0812 | 0.827 | CG11436 (GeneID 31386) | 1 |
| 0.0435 | -0.551 | -0.499 | beat-Ib (GeneID 34939) | 1 |
| -0.294 | 0.187 | -0.476 | CG14324 (GeneID 42119) | 1 |
| -0.153 | 2.19 | 0.21 | CG14324 (GeneID 42119) | 2 |
| -1.7 (active) | -2.41 | -4.49 | CG11710 (GeneID 33044) | 1 |
| 0.631 | -6.4 | 1.41 | CG11710 (GeneID 33044) | 2 |
| 0.456 | 1.2 | 0.646 | park (GeneID 40336) | 1 |
| -1.46 | -0.0882 | 0.712 | CG18537 (GeneID 37094) | 1 |
| 0.0791 | -1 | -0.616 | CG18537 (GeneID 37094) | 2 |
| 1.35 (active) | 4.17 | 1.99 | RpL12 (GeneID 45329) | 1 |
| -0.933 | 0.154 | 0.321 | DIP-delta (GeneID 5740816) | 1 |
| -0.369 | -4.03 | 0.856 | DIP-delta (GeneID 5740816) | 2 |
| 0.837 | -0.476 | 0.523 | Letm1 (GeneID 37912) | 1 |
| 0.371 | 0.00359 | 1.14 | Rtnl1 (GeneID 33721) | 1 |
| 0.408 | 0.115 | -1.4 | Rtnl1 (GeneID 33721) | 2 |
| -1.09 | -3.06 | 0.387 | Rtnl1 (GeneID 33721) | 3 |
| -0.00938 | 1.01 | 0.575 | Rtnl1 (GeneID 33721) | 4 |
| -1.47 (active) | -1.71 | -4.75 | Su(var)2-HP2 (GeneID 36621) | 1 |
| 0.191 | 0.604 | -0.207 | Su(var)2-HP2 (GeneID 36621) | 2 |
| -6.83 | 1.7 | -0.811 | Glt (GeneID 34193) | 1 |
| -1.37 | -0.112 | -0.324 | Glt (GeneID 34193) | 2 |
| 0.955 | 0.00645 | 0.00378 | mthl6 (GeneID 38839) | 1 |
| 0.0856 | -1.65 | -0.377 | CG1299 (GeneID 38496) | 1 |
| 0.656 | 0.205 | 1.23 | Or94b (GeneID 42712) | 1 |
| 0.177 | 0.294 | -4.99 | Or94b (GeneID 42712) | 2 |
| 0.0191 | 0.00721 | -1.08 | Hsepi (GeneID 35569) | 1 |
| 0.354 | 0.459 | 1.26 | Hsepi (GeneID 35569) | 2 |
